PubChem BioAssay AID624099 – ICCB-Longwood | 2012

Screen: 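Human genes that papillomavirus E2 requires to repress the HPV18 LCR promoter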 (primary screen)
Cells: human C33A cervical carcinoma cells (HPV-negative) stably expressing BPV1 E2 and an HPV18 LCR luciferase reporter
Reagents: siRNA pool against human genes, 40 nM
Time to read-out: 72 h
Measured: 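HPV18 LCR reporter light per well, converted to plate-wise z-scores that exclude control wells, and averaged over triplicate plates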
Scale: mean z-score and z-score: higher = stronger reporter signal, weaker E2 silencing
Active means: 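Hit if mean z-score reaches 2 and two or more of three replicate z-scores also reach 2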
This is a random part of about 21,000 reagents. 497 of all reagents (2.4%) were called active. 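Higher z means weaker E2 silencing; only reporter increases were scored, and knock-downs that hurt cell survival may mask genuine repressor factors.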 A number with no mark means an inactive call.

The first 4 entries as a preview:
gene symbol,mean z-score,"z-score, replicate A","z-score, replicate B","z-score, replicate C"
"FRG2DP (FSHD region gene 2 family member D, pseudogene)",-0.2,0.36,-0.83,-0.14
FBXL6 (F-box and leucine rich repeat protein 6),0.2,0.16,0.24,0.19
LOC285307 (retired record),-1.58,-1.59,-1.23,-1.92
TLN2 (talin 2),-0.64,-0.66,-0.61,-0.65

The listing, repeating the preview:
gene symbol,mean z-score,"z-score, replicate A","z-score, replicate B","z-score, replicate C"
"FRG2DP (FSHD region gene 2 family member D, pseudogene)",-0.2,0.36,-0.83,-0.14
FBXL6 (F-box and leucine rich repeat protein 6),0.2,0.16,0.24,0.19
LOC285307 (retired record),-1.58,-1.59,-1.23,-1.92
TLN2 (talin 2),-0.64,-0.66,-0.61,-0.65
DDA1 (DET1 and DDB1 associated 1),1.19,1.5,0.9,1.18
LOC388713 (retired record),-0.28,-0.23,0.01,-0.61
RASA1 (RAS p21 protein activator 1),0.3,0.15,0.19,0.55
AGPAT5 (1-acylglycerol-3-phosphate O-acyltransferase 5),-0.12,-0.29,-0.23,0.16
ZNF468 (zinc finger protein 468),0.54,0.42,0.51,0.69
GSTT1 (glutathione S-transferase theta 1),-0.83,-0.81,-0.92,-0.76
LIMCH1 (LIM and calponin homology domains 1),-1.25,-1.32,-0.78,-1.64
LOC285253 (retired record),0.48,0.66,0.4,0.38
LOC389469 (retired record),1.52,1.52,1.57,1.48
BACH1 (BTB domain and CNC homolog 1),-0.01,-0.37,0.04,0.31
RPS4X (ribosomal protein S4 X-linked),-2.93,-3.04,-3.02,-2.73
"PSMD7 (proteasome 26S subunit, non-ATPase 7)",-1.57,-2.12,-1.38,-1.21
AURKC (aurora kinase C),1.33,1.33,1.71,0.93
KRT8P12 (keratin 8 pseudogene 12),-1.71,-1.86,-1.66,-1.62
YBX3 (Y-box binding protein 3),-0.78,-0.68,-0.75,-0.91
AIG1 (androgen induced 1),0.67,0.69,0.48,0.83
RPL39L (ribosomal protein L39 like),0.07,0.57,-0.12,-0.26
BAGE (B melanoma antigen),1.28,0.74,1.49,1.6
DENND10 (DENN domain containing 10),-0.15,-0.42,0.04,-0.07
HES7 (hes family bHLH transcription factor 7),1.42,2.07,0.96,1.24
DAPK1 (death associated protein kinase 1),0.47,0.87,0.29,0.25
AQP12A (aquaporin 12A),-0.26,-0.25,-0.16,-0.37
LOC399763 (retired record),-0.72,-0.71,-0.52,-0.94
TBXA2R (thromboxane A2 receptor),-1.68,-1.91,-1.76,-1.37
LOC197387 (retired record),0.02,0.05,-0.02,0.03
TAF12 (TATA-box binding protein associated factor 12),-0.49,-0.62,-0.25,-0.59
EEF1B2 (eukaryotic translation elongation factor 1 beta 2),-0.44,-0.44,-0.49,-0.4
AGBL5 (AGBL carboxypeptidase 5),-0.27,-0.52,-0.28,0
LOC389184 (retired record),1.11,0.83,1.01,1.49
RPRD2 (regulation of nuclear pre-mRNA domain containing 2),-0.37,-0.24,-0.78,-0.1
ZNF589 (zinc finger protein 589),-0.71,-0.75,-0.53,-0.84
CORO1C (coronin 1C),-1.07,-1.54,-0.9,-0.75
NCAPG2 (non-SMC condensin II complex subunit G2),0.97,0.95,1.14,0.81
UBL5 (ubiquitin like 5),0.38,0.47,0.35,0.34
RPL10P14 (ribosomal protein L10 pseudogene 14),1.11,0.91,0.99,1.43
NRBP1 (nuclear receptor binding protein 1),0.68,0.29,0.67,1.07
TAAR5 (trace amine associated receptor 5),-0.17,0.29,-0.46,-0.35
LOC728510 (retired record),0.1,-0.11,0.03,0.38
MYL6P5 (MYL6 pseudogene 5),-1.49,-1.77,-1.31,-1.38
GPR62 (G protein-coupled receptor 62),-1.54,-1.56,-1.2,-1.86
VIP (vasoactive intestinal peptide),-0.02,-0.21,0.41,-0.26
C14orf180 (chromosome 14 open reading frame 180),-1.18,-1.19,-1.3,-1.04
LOC389150 (retired record),-1.93,-1.64,-1.85,-2.3
PYROXD2 (pyridine nucleotide-disulphide oxidoreductase domain 2),1.01,1.45,0.89,0.7
SPINK4 (serine peptidase inhibitor Kazal type 4),1.16,0.5,1.4,1.58
LOC401119 (retired record),-0.43,0.22,-0.61,-0.91
MAN2B1 (mannosidase alpha class 2B member 1),-0.5,-0.46,-0.59,-0.44
EHHADH (enoyl-CoA hydratase and 3-hydroxyacyl CoA dehydrogenase),-0.59,-0.84,-0.32,-0.61
TMEM215 (transmembrane protein 215),-0.32,-0.13,-0.29,-0.55
LOC402626 (retired record),-0.28,-0.23,-0.26,-0.34
L3MBTL4 (L3MBTL histone methyl-lysine binding protein 4),-0.2,-0.27,-0.23,-0.1
MICAL1,-1.05,-0.92,-1.37,-0.85
OR5V1 (olfactory receptor family 5 subfamily V member 1),-0.89,-0.8,-1.31,-0.56
